# This is a selection; strong and weak results do not stand in their true shares. Records with an inconclusive call do not appear. Calls of active or inactive are those of the source. Calls follow the shape of the full dose curve.
# Test: Assay for Inhibitors of Influenza NS1 Protein Function: Hit Validation; also: 0% is about no effect
# Conditions: influenza NS1 function cell assay, 15-point titration; at 32.9 µM (top of the series)
# Excerpt: NIH Chemical Genomics Center [NCGC]
# NIH Molecular Libraries Probe Centers Network [MLPCN]
# Assay Submitter (PI): Daniel Engel
# Influenza is a world-wide public health problem and emerging forms of the virus have the potential to cause a pandemic of equal or greater magnitude to the outbreaks recorded in 1918, 1957 or 1968. Vaccine development is proceeding and there also exist two classes of anti-influenza compounds. However these therapeutic modalities are neither fully effective nor widely enough available to fulfill global needs. In addition their potential usefulness against newly emergent strains is not known. Efforts are needed to develop novel agents against influenza virus, including broad-spectrum agents. Identification of small molecules that inhibit NS1 function either directly or by interfering with specific cellular pathways may be a key to increasing our defense against the virus.
# We have miniaturized and optimized a cell based assay in which NS1 from influenza A is expressed in the budding yeast S. cerevisiae. NS1 is a multi-functional protein that counters the host innate immune response and facilitates viral versus cellular gene expression. Expression of NS1 causes a pronounced slow growth phenotype in yeast due to its intrinsic molecular activities. […]
# 9. Read plate using Viewlux protocol for optical density 600 (OD600) using excitation filter 600nm.
row,Compound,"activity change, negative = inhibition"
1,NC(=O)Nc1ccc([As](=O)(O)O)cc1,inactive: 6.07%

# Reference: PubChem BioAssay AID492980 (National Center for Advancing Translational Sciences (NCATS), 2010)
